Tests used:
Assay in all cases: cell-based or functional assay
[1] = biological target: hNav1.1 (human), P35498
[2] = biological target: hNav1.2 (human), Q99250
[3] = biological target: hNav1.3 (human), Q9NY46
[4] = biological target: hNav1.4 (human), P35499
[5] = biological target: hNav1.5 (human), Q14524
[6] = biological target: hNav1.6 (human), Q9UQD0
[7] = biological target: hNav1.8 (human), Q9Y5Y9
[8] = biological target: hNav1.9 (human), Q9UI33

## DCRYMFGDCEKDEDCCKHLGCKRKMKYCAWDFTFT (modifications not checked) [Pnc1a]
[1]
  Selectivity for Nav1.7, membrane potential assay: > 50 fold
  selectivity for Nav1.7, automated patch clamp: > 30 fold
[2]
  Selectivity for Nav1.7, membrane potential assay: > 10 fold
  selectivity for Nav1.7, automated patch clamp: > 100 fold
[3]
  Selectivity for Nav1.7, membrane potential assay: > 10 fold
  selectivity for Nav1.7, automated patch clamp: > 100 fold
[4]
  Selectivity for Nav1.7, membrane potential assay: > 50 fold
  selectivity for Nav1.7, automated patch clamp: > 100 fold
[5]
  Selectivity for Nav1.7, membrane potential assay: > 100 fold
  selectivity for Nav1.7, automated patch clamp: > 1000 fold
[6]
  Selectivity for Nav1.7, membrane potential assay: > 50 fold
  selectivity for Nav1.7, automated patch clamp: > 100 fold
[7]
  Selectivity for Nav1.7, membrane potential assay: > 100 fold
  selectivity for Nav1.7, automated patch clamp: > 1000 fold
[8]
  selectivity for Nav1.7, automated patch clamp: > 1000 fold

Source: patent publication US20190359662A1
